Data on one substance can be found in US20160122395A1, “Immunogenic compositions and a process for producing same” (THE […] INSTITUTE FOR MEDICAL RESEARCH AND PUBLIC HEALTH LTD, priority 2013, published 2016).

This assay has as its target HIV-1 AD8 envelope glycoprotein (Env), wild type (HIV-1 (AD8 strain)). In words: cell-based or functional assay.

In the case of “soluble CD4 (from UniProt P01730 26-396) (receptor)”, the IC50, inhibition of Env-mediated cell-cell fusion by sCD4 (luciferase) turned out to be 60 µg/mL.
